A mixed list of measured activities; the numbers were collected in NIAID ChemDB.

Shared fields: whole-cell or culture tests; species: HIV-1

Fold resistance has wild type as its base.

{"smiles": "CC(=O)N1CCn2c(nc(C(=O)NCc3ccc(F)cc3)c(O)c2=O)C1", "cell line": "MT-4", "read by": "p24", "measure": "EC95", "value": "<50 µM"}
{"smiles": "Cc1cn([C@H]2C=C[C@@H](CO)O2)c(=O)[nH]c1=O", "strain": "XM-AZT-resistant", "mutations": "RT-M41L D67N K70R T215Y K219Q", "cell line": "MT-4", "read by": "p24", "measure": "EC90", "value": "0.7 µM"}
{"smiles": "Cc1cc(C#N)cc(C(=O)c2cc(Cl)ccc2OCC(=O)Nc2cnc(S(N)(=O)=O)cc2C)c1", "strain": "HXB2", "mutations": "RT-K103N", "cell line": "HeLa + HELA CD4+", "read by": "β-galactosidase", "measure": "EC50", "value": "<0.01 µM"}
{"smiles": "Nc1nc(NC2CC2)c2ncn([C@H]3C=C[C@@H](CO)C3)c2n1", "strain": "NL4-3 WT", "cell line": "PBMC", "read by": "p24", "measure": "EC90", "value": "2.5 µM"}
{"smiles": "O=C1c2c(O)c(=O)n(C3CCS(=O)(=O)c4ccccc43)c(=O)n2CCN1Cc1ccc(F)cc1", "cell line": "MT-4", "read by": "p24", "measure": "EC95", "value": "<10 µM"}
{"smiles": "Cc1cc(S(N)(=O)=O)ccc1NC(=O)COc1ccc(Cl)cc1C(=O)c1cc(F)cc(F)c1", "strain": "HXB2", "mutations": "RT-K103N", "cell line": "HeLa + HELA CD4+", "read by": "β-galactosidase", "measure": "fold resistance", "value": "~1"}
{"smiles": "O=C1Nc2ccc(Cl)cc2[C@@](C#CC2CC2)(C(F)(F)F)N1", "mutations": "RT-V106A", "measure": "EC90", "value": "<0.012 µM"}
{"smiles": "CC(C)CN(CC(O)CCN1CSC[C@@H]1C(=O)NC(C)(C)C)S(=O)(=O)c1ccccc1", "strain": "IIIB", "cell line": "CEM", "read by": "p24", "measure": "EC90", "value": "1 µM"}
{"smiles": "CC(=O)N1CCn2c(nc(C(=O)NCc3ccc(F)cc3)c(O)c2=O)C(N(C)C(=O)C(=O)N(C)C)C1", "cell line": "MT-4", "read by": "p24", "measure": "EC95", "value": "<1 µM"}
{"smiles": "COc1ccc(S(=O)(=O)N(CC[C@@H](O)CN2CCCC[C@H]2C(=O)NC(C)(C)C)CC(C)C)cc1", "strain": "IIIB", "cell line": "CEM", "read by": "p24", "measure": "EC90", "value": "1 µM"}
{"smiles": "CCc1cc(C#N)cc(C(=O)c2cc(Cl)ccc2OCC(=O)Nc2ccc(S(N)(=O)=O)cc2C)c1", "strain": "HXB2", "mutations": "RT-V106I Y181C", "cell line": "HeLa + HELA CD4+", "read by": "β-galactosidase", "measure": "fold resistance", "value": "~10"}
{"smiles": "COc1ccc(S(=O)(=O)N(CC(C)C)C[C@@H](O)CCN(CC2CCCC2)S(=O)(=O)c2cccc(N)c2)cc1", "strain": "IIIB", "cell line": "CEM", "read by": "p24", "measure": "EC90", "value": "0.1 µM"}
{"smiles": "CC(C)n1c(=O)c(O)c2n(c1=O)C(CCN(C)C(=O)c1ccccc1)CN(Cc1ccc(F)cc1)C2=O", "cell line": "MT-4", "read by": "p24", "measure": "EC95", "value": "<10 µM"}
{"smiles": "COc1ccnc2[nH]cc(C(=O)C(=O)N3C4CCC3CN(C(=O)c3ccccc3)C4)c12", "strain": "6535", "cell line": "TZM-bl", "read by": "luciferase", "measure": "EC99", "value": "4 µM"}
{"smiles": "CC(C)=CCOc1cc(NC(=S)c2ccsc2C)ccc1Cl", "strain": "NL4-3 (RT K103N)", "mutations": "RT-K103N", "cell line": "CEM + CEM-SS", "read by": "cytopathic effect / XTT", "measure": "EC50", "value": "0.07 µM"}
{"smiles": "CC(C)(C)NC(=O)c1ccccc1C(=O)C(=O)C(=O)N(CC1CCCC1)S(=O)(=O)c1ccccc1", "strain": "IIIB", "cell line": "CEM", "read by": "p24", "measure": "EC90", "value": "1 µM"}
{"smiles": "C[C@@H]1CCO[C@H]2Cn3cc(C(=O)NCc4ccc(F)cc4F)c(=O)c(O)c3C(=O)N12", "strain": "NL4-3", "mutations": "G140S/Q148H", "cell line": "CBMC", "read by": "RT activity", "measure": "fold resistance", "value": "7.4"}
{"smiles": "CS(=O)(=O)Nc1ccc(NC(=O)COc2ccc(Cl)cc2C(=O)c2ccccc2)cc1", "strain": "HXB2", "mutations": "RT-K103N", "cell line": "HeLa + HELA CD4+", "read by": "β-galactosidase", "measure": "fold resistance", "value": "~10"}
{"smiles": "CC1(C)c2nc(C(=O)NCc3ccc(F)cc3)c(O)c(=O)n2CCN1Cc1ncco1", "cell line": "MT-4", "read by": "p24", "measure": "EC95", "value": "<1 µM"}
{"smiles": "O=C1Nc2ccc(F)c(F)c2[C@@](C#CC2CC2)(C(F)(F)F)N1", "mutations": "RT-Y188L", "measure": "EC90", "value": "~0.075 µM"}
{"smiles": "CN1CCn2c(nc(C(=O)NCc3ccc(F)cc3)c(O)c2=O)C12CCOCC2", "cell line": "MT-4", "read by": "p24", "measure": "EC95", "value": "<1 µM"}
{"smiles": "O=C(c1ccccc1)N(CCc1ccccc1)C[C@H](O)CN(CC1CCCC1)S(=O)(=O)Cc1cncs1", "strain": "IIIB", "cell line": "CEM", "read by": "p24", "measure": "EC90", "value": "1 µM"}
{"smiles": "O=C1c2c(O)c(=O)n(CC3(N4CCOCC4)CCCC3)c(=O)n2CCN1Cc1ccc(F)cc1", "cell line": "MT-4", "read by": "p24", "measure": "EC95", "value": "<10 µM"}
{"smiles": "CC(C)[C@H](NC(=O)OCc1ccccn1)C(=O)N[C@@H](Cc1ccccc1)[C@@H](O)C[C@H](Cc1ccccc1)NC(=O)OCc1cccnc1", "strain": "NL4-3", "mutations": "PR-L63P V82T I84V", "cell line": "MT-4", "read by": "p24", "measure": "EC95", "value": "3 µM"}
{"smiles": "O=C(NCc1ccc(F)cc1)c1nc2n(c(=O)c1O)CCNC2COCc1ccccc1", "cell line": "MT-4", "read by": "p24", "measure": "EC95", "value": "<1 µM"}
{"smiles": "O=C(c1ccccc1)N(CCc1ccccc1)C[C@H](O)CN(CC1CCCC1)S(=O)(=O)c1cccnc1", "strain": "IIIB", "cell line": "CEM", "read by": "p24", "measure": "EC90", "value": "1 µM"}
{"smiles": "Cc1cc(C#N)cc(C(=O)c2cc(Cl)ccc2OCC(=O)Nc2ccc(S(N)(=O)=O)cc2C)c1", "strain": "HXB2", "mutations": "RT-L100I", "cell line": "HeLa + HELA CD4+", "read by": "β-galactosidase", "measure": "fold resistance", "value": "~1"}
{"smiles": "CC(C)=CCOc1cc(NC(=S)c2ccoc2C)ccc1Cl", "strain": "NL4-3 (RT V179D)", "mutations": "RT-V179D", "cell line": "CEM + CEM-SS", "read by": "cytopathic effect / XTT", "measure": "fold resistance", "value": "1.33"}
{"smiles": "Cc1cc(C)cc(C(=O)c2cc(Cl)ccc2OCC(=O)Nc2ccc(S(N)(=O)=O)cc2C)c1", "strain": "HXB2", "mutations": "RT-V108I Y181C", "cell line": "HeLa + HELA CD4+", "read by": "β-galactosidase", "measure": "fold resistance", "value": "~1"}
{"smiles": "CC(C)CN(CCC(O)CNc1cscc1S(=O)(=O)c1ccccc1)S(=O)(=O)c1ccccc1", "strain": "IIIB", "cell line": "CEM", "read by": "p24", "measure": "EC90", "value": "1 µM"}
{"smiles": "COc1ccnc2[nH]cc(C(=O)C(=O)N3C4CCCC3CN(C(=O)c3ccccc3)C4)c12", "strain": "PVO", "cell line": "TZM-bl", "read by": "luciferase", "measure": "EC90", "value": "18 µM"}
{"smiles": "COc1ccc(S(=O)(=O)N(CC2CCCC2)C(=O)C(=O)C(=O)[C@@H](Cc2ccccc2)NC(=O)OC2COCOC2)cc1", "strain": "IIIB", "cell line": "CEM", "read by": "p24", "measure": "EC90", "value": "1 µM"}
{"smiles": "CC(C)=CCOc1cc(NC(=S)c2ccsc2C)ccc1Cl", "strain": "NL4-3", "mutations": "RT-L100I", "cell line": "CEM + CEM-SS", "read by": "p24", "measure": "fold resistance", "value": "33"}
{"smiles": "O=C(O)c1cc(-n2cccc2)ccc1Cl", "strain": "RU570 R5 CLADE G", "cell line": "PBMC + MT-2", "read by": "p24", "measure": "EC90", "value": "105 µM"}
{"smiles": "O=C(CN1CCOCC1)N1CCC(n2c(=O)c(O)c3n(c2=O)CCN(Cc2ccc(F)cc2)C3=O)CC1", "cell line": "MT-4", "read by": "p24", "measure": "EC95", "value": "<10 µM"}
{"smiles": "COc1ccc(S(=O)(=O)N(CC(C)C)C[C@@H](O)CCN(CC2CCCC2)S(=O)(=O)c2nc3ccccc3[nH]2)cc1", "strain": "IIIB", "cell line": "CEM", "read by": "p24", "measure": "EC90", "value": "1 µM"}
{"smiles": "CCC(=O)c1ccc(F)c([C@@H]2C[C@@H]2NC(=O)Nc2ccc(C#N)cn2)c1O", "strain": "LAI", "mutations": "NNRTI-resistant (RT F227C)", "cell line": "TZM-bl", "read by": "β-galactosidase / luminescence", "measure": "fold resistance", "value": "14.8"}
{"smiles": "Cc1cc(S(N)(=O)=O)ccc1NC(=O)COc1ccc(Cl)cc1C(=O)c1cccc(C#N)c1", "strain": "HXB2", "mutations": "RT-L100I", "cell line": "HeLa + HELA CD4+", "read by": "β-galactosidase", "measure": "fold resistance", "value": "~1"}

The first 4 rows once more:

CC(=O)N1CCn2c(nc(C(=O)NCc3ccc(F)cc3)c(O)c2=O)C1 ; cell line: MT-4 ; read by: p24 ; measure: EC95 ; value: <50 µM
Cc1cn([C@H]2C=C[C@@H](CO)O2)c(=O)[nH]c1=O ; strain: XM-AZT-resistant ; mutations: RT-M41L D67N K70R T215Y K219Q ; cell line: MT-4 ; read by: p24 ; measure: EC90 ; value: 0.7 µM
Cc1cc(C#N)cc(C(=O)c2cc(Cl)ccc2OCC(=O)Nc2cnc(S(N)(=O)=O)cc2C)c1 ; strain: HXB2 ; mutations: RT-K103N ; cell line: HeLa + HELA CD4+ ; read by: β-galactosidase ; measure: EC50 ; value: <0.01 µM
Nc1nc(NC2CC2)c2ncn([C@H]3C=C[C@@H](CO)C3)c2n1 ; strain: NL4-3 WT ; cell line: PBMC ; read by: p24 ; measure: EC90 ; value: 2.5 µM

ECn: concentration that inhibits the pathogen or its effect by n%. Lines come from different laboratories, so protocols vary.